Assay results from patent publication US20180256673A1, “METHODS FOR TREATING FUNGAL INFECTIONS” (priority 2015, published 2018).

System: C. glabrata ATCC 90030, ATCC 2001
Experiment: microbe, parasite or virus in culture
Assay type: cell-based, Candida glabrata
Conditions: Nakaseomyces glabratus

## CCCCCOc1ccc(-c2ccc(-c3ccc(C(=O)N[C@H]4C[C@@H](O)[C@@H](OCC[N+](C)(C)C)NC(=O)[C@@H]5[C@@H](O)[C@@H](C)CN5C(=O)[C@H]([C@@H](C)O)NC(=O)[C@H]([C@H](O)[C@@H](O)c5ccc(O)cc5)NC(=O)[C@@H]5C[C@@H](O)CN5C(=O)[C@H]([C@@H](C)O)NC4=O)cc3)cc2)cc1 [Compound 1]
48 h, ATCC 90030 P20-1, selecting drug CAS, Fks2 HS1 F659I D666Y, 48 h read
  MIC: 8 µg/mL
ATCC 2001 P20-2, selecting drug ANID, Fks1 HS1 D632Y
  MIC: 2 µg/mL
